A mixed list of measured activities; the numbers were collected in NIAID ChemDB.

Shared fields: tests in culture; agent: HIV-1; endpoint: fold resistance

Blank or dashed fields: not listed here. Fold resistance: result on the changed form divided by that on wild type. Lines come from different laboratories, so protocols vary.

smiles	method	strain	mutations	cell line	value
C#CCNC(=O)CSc1cnc(Nc2ccc(C#N)cc2)nc1Oc1c(C)cc(C#N)cc1C	MTT		K103N	MT-4	0.7
CCC(=O)c1ccc(F)c([C@@H]2C[C@@H]2NC(=O)Nc2ccc(C#N)cn2)c1O	β-galactosidase / luminescence	LAI	NNRTI-resistant (RT V179D)	TZM-bl	1.1
CCc1nnc(SCC(=O)Nc2ccc(C)cc2Br)n1-c1ccc(C)cc1	luciferase	NL4-3	RT-K103N Y181C	HeLa + HeLa-JC53	25000
Cc1cc(OCCCS(N)(=O)=O)ccc1NC(=O)COc1ccc(Cl)cc1C(=O)c1cc(F)cc(C(F)(F)F)c1	β-galactosidase	HXB2	RT-K103N	HeLa + HELA CD4+	~1
COc1cc2c(cc1Cc1cccc(Cl)c1F)c(=O)c(C(=O)O)cn2[C@H](CO)C(C)C	luminescence	NL4-3	H171T	MT-4	1
O=C(O[C@@H]1[C@H](OC(=O)c2ccccc2)[C@@H](CO)O[C@H]1n1cnc2c(N(C(=O)c3ccccc3)C(=O)c3ccccc3)ncnc21)c1ccccc1	β-galactosidase	NL4-3	K103N	HeLaP4	1
O=C1Nc2ccc(Cl)cc2[C@@](C#CC2CC2)(C(F)(F)F)N1			RT-Y188C		<6.32
CCN1C(=O)c2c(O)c(=O)c(C(=O)NCc3c(F)cc(F)cc3F)cn2[C@H]2CCOC[C@H]21	luminescence		N155H/Q148R	MT-2	2.2
Cc1ccc2cccc(C)c2c1-n1c(C)nnc1SCC(=O)Nc1ccccc1Br	luciferase	NL4-3	RT-Y188L	HeLa + HeLa-JC53	480
COCCNC(=O)CSc1cnc(Nc2ccc(C#N)cc2)nc1Oc1c(C)cc(C#N)cc1C	MTT		RES056	MT-4	91.4
CC(C)[C@H](NC(=O)OCc1ccccn1)C(=O)N[C@@H](Cc1ccccc1)[C@@H](O)C[C@H](Cc1ccccc1)NC(=O)OCc1cccnc1	p24	NL4-3	PR-L10R L63P V82T I84V	MT-4	1.875
Cc1cc(S(N)(=O)=O)ccc1NC(=O)COc1ccc(Cl)cc1C(=O)c1cc(F)cc(C#N)c1	β-galactosidase	HXB2	RT-K103N V108I	HeLa + HELA CD4+	~1
C[C@H]1CO[C@@H]2Cn3cc(C(=O)NCc4ccc(F)cc4F)c(=O)c(O)c3C(=O)N12	RT activity	NL4-3	N155H	CBMC	2.1
Cc1cc(C#N)cc(C)c1Oc1nc(Nc2ccc(C#N)cc2)ncc1SCC(=O)NC1CCN(C(=O)OC(C)(C)C)CC1	MTT		K103N	MT-4	1.3
CCN1C(=O)c2c(O)c(=O)c(C(=O)NCc3ccc(F)cc3F)cn2[C@H]2CCOC[C@H]21	luminescence		N155H/Q148R	MT-2	1.8
Cc1occc1C(=S)Nc1ccc(Cl)c(C(=O)OC(C)C)c1	cytopathic effect / XTT	NL4-3	RT-L74V	CEM + CEM-SS	1
Cc1cc(S(N)(=O)=O)ccc1NC(=O)COc1ccc(Cl)cc1C(=O)c1cccc(C#N)c1	β-galactosidase	HXB2	RT-L100I	HeLa + HELA CD4+	~1
Cc1ccc(-n2c(C)nnc2SCC(=O)Nc2cccc(Cl)c2Cl)cc1	luciferase	NL4-3	RT-K103N Y181C	HeLa + HeLa-JC53	1100
Cc1cc(C#N)cc(C)c1Oc1nc(Nc2ccc(C#N)cc2)ncc1SCC(=O)NCCCN1CCOCC1	MTT		RES056	MT-4	130.4
Cc1cc(C)cc(C(=O)c2cc(Cl)ccc2OCC(=O)Nc2ccc(S(N)(=O)=O)cc2C)c1	β-galactosidase	HXB2	RT-V106A Y181C	HeLa + HELA CD4+	~1
C=CCO/N=C/c1cc(NC(=S)c2ccoc2C)ccc1Cl	cytopathic effect / XTT	NL4-3	RT-Y181C	CEM + CEM-SS	57.1
Nc1nc(NC2CC2)c2ncn([C@H]3C=C[C@@H](CO)C3)c2n1	p24	XM-Q151M	RT-A62V V75I F77C F116Y Q151M	PBMC	0.7
Cc1ccc(-n2c(C)nnc2SCC(=O)Nc2ccc(C)cc2Cl)c(C)c1	luciferase	NL4-3	RT-K103N Y181C	HeLa + HeLa-JC53	600
Cc1occc1C(=S)Nc1ccc(Cl)c(C(=O)OCC2CC2)c1	cytopathic effect / XTT	CALO(RT-T139I)	RT-T139I	CEM + CEM-SS	2
COc1ccnc2[nH]cc(C(=O)C(=O)N3CCN(C(=O)c4ccccc4)C[C@H]3C)c12	RT activity	NL4-3(GP120-R350K) Recombinant	GP120-R350K	MT-2	0.567
C=CCNC(=O)CSc1cnc(Nc2ccc(C#N)cc2)nc1Oc1c(C)cc(C#N)cc1C	MTT		Y181C	MT-4	6.8
O=C1Nc2ccc(F)c(F)c2[C@@](C#CC2CC2)(C(F)(F)F)N1			RT-Y181C		<13.3
Cc1ccc2c(C)ccc(-n3c(C)nnc3SCC(=O)Nc3ccccc3Br)c2c1	luciferase	NL4-3	RT-Y188L	HeLa + HeLa-JC53	400
Cc1cc(C#N)cc(C)c1Oc1nc(Nc2ccc(C#N)cc2)ncc1SCC(=O)NCCN1CCOCC1	MTT		Y181C	MT-4	3.8
Cc1occc1C(=S)Nc1ccc(Cl)c(/C=N/OC(C)(C)C)c1	cytopathic effect / XTT	NL4-3	RT-K101E	CEM + CEM-SS	12.5
Cc1cc(C#N)cc(C)c1Oc1nc(Nc2ccc(C#N)cc2)ncc1SCC(N)=O	MTT		Y188L	MT-4	7
C/C=C/CSc1cc(NC(=S)c2ccsc2C)ccc1Cl	p24	NL4-3	RT-K103N	CEM + CEM-SS	60
Cc1cc(C#N)cc(C)c1Oc1nc(Nc2ccc(C#N)cc2)ncc1SCC(=O)NCc1ccc(O)cc1	MTT		Y188L	MT-4	12.3
C[C@@H]1CCO[C@H]2Cn3cc(C(=O)NCc4ccc(F)cc4F)c(=O)c(O)c3C(=O)N12	luciferase / luminescence		L74F	TZM-bl	0.4
CCN1C(=O)c2c(O)c(=O)c(C(=O)NCc3ccc(F)c(Cl)c3F)cn2[C@H]2CCOC[C@H]21	luminescence		N155H/Q148R	MT-2	2.8
CCc1ccc(-n2c(C)nnc2SCC(=O)Nc2ccc(C)cc2Cl)c2ccccc12	luciferase	NL4-3	RT-K103N Y181C	HeLa + HeLa-JC53	32
Nc1nc(=O)n([C@H]2C=C[C@@H](CO)O2)cc1F	p24	XM-Q151M	RT-A62V V75I F77C F116Y Q151M	PBMC	15
Cc1ccc2c(C)cc(C)c(-n3c(C)nnc3SCC(=O)Nc3ccc(S(N)(=O)=O)cc3Cl)c2n1	luciferase	NL4-3	RT-Y188L	HeLa + HeLa-JC53	16
CC=CCOc1cc(NC(=S)c2ccoc2C)ccc1OC	cytopathic effect / XTT	4xAZT/L100I(RT-D67N K70R T215Y K219Q L100I)	RT-D67N K70R L100I T215Y K219Q	CEM + CEM-SS	23.3
CSc1ccccc1NC(=O)CSc1nnc(C)n1-c1ccc(C)cc1	luciferase	NL4-3	RT-K103N Y181C	HeLa + HeLa-JC53	200
Cc1cc(C#N)cc(C)c1Oc1nc(Nc2ccc(C#N)cc2)ncc1SCC(=O)Nc1ccc(S(C)(=O)=O)cc1	MTT		F227L V106A	MT-4	55.5
N#Cc1cc(Cl)cc(Oc2c(Br)ccc(CC(=O)Nc3ccc(S(N)(=O)=O)cc3Cl)c2F)c1			Y181I/M230L	MT-4	9
Cc1nnc(SCC(=O)Nc2ccc(S(N)(=O)=O)cc2Cl)n1-c1ccc(Cl)c2ccccc12	luciferase	NL4-3	RT-Y188L	HeLa + HeLa-JC53	68

The last 6 rows once more:

Cc1ccc2c(C)cc(C)c(-n3c(C)nnc3SCC(=O)Nc3ccc(S(N)(=O)=O)cc3Cl)c2n1 ; method: luciferase ; strain: NL4-3 ; mutations: RT-Y188L ; cell line: HeLa + HeLa-JC53 ; value: 16
CC=CCOc1cc(NC(=S)c2ccoc2C)ccc1OC ; method: cytopathic effect / XTT ; strain: 4xAZT/L100I(RT-D67N K70R T215Y K219Q L100I) ; mutations: RT-D67N K70R L100I T215Y K219Q ; cell line: CEM + CEM-SS ; value: 23.3
CSc1ccccc1NC(=O)CSc1nnc(C)n1-c1ccc(C)cc1 ; method: luciferase ; strain: NL4-3 ; mutations: RT-K103N Y181C ; cell line: HeLa + HeLa-JC53 ; value: 200
Cc1cc(C#N)cc(C)c1Oc1nc(Nc2ccc(C#N)cc2)ncc1SCC(=O)Nc1ccc(S(C)(=O)=O)cc1 ; method: MTT ; mutations: F227L V106A ; cell line: MT-4 ; value: 55.5
N#Cc1cc(Cl)cc(Oc2c(Br)ccc(CC(=O)Nc3ccc(S(N)(=O)=O)cc3Cl)c2F)c1 ; mutations: Y181I/M230L ; cell line: MT-4 ; value: 9
Cc1nnc(SCC(=O)Nc2ccc(S(N)(=O)=O)cc2Cl)n1-c1ccc(Cl)c2ccccc12 ; method: luciferase ; strain: NL4-3 ; mutations: RT-Y188L ; cell line: HeLa + HeLa-JC53 ; value: 68